# Where a SMILES comes first, the peptide text is derived from it. The star is where a group is joined. Succinyl(4-O-cholesteryl) = CC(C)CCC[C@@H](C)[C@H]1CC[C@H]2[C@@H]3CC=C4C[C@@H](OC(=O)CCC(=O)*)CC[C@]4(C)[C@H]3CC[C@]12C
# Tested on: RSV A long virus strain
# Assay type: cell-based
# Details: CC50/IC50, HEp-2 cells
# In short: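 HEp-2 cells (30000/well) infected with 100 PFU virus premixed 1 h with compound (8 concentrations, duplicate); after 2 h adsorption, cultured 1 day at 37 °C under 0.8% CMC overlay with compound. Plaques immunostained (RSV antibody, TrueBlue) and counted; IC50 and CC50 by non-linear fitting of % inhibition versus virus and cell controls.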
row,Compound,Safety index (SI)
1,CC[C@H](C)[C@H](NC(=O)[C@H](CCCCN)NC(=O)[C@H](CCCCN)NC(=O)[C@H](CC(C)C)NC(=O)[C@H](CO)NC(=O)[C@H](CCC(N)=O)NC(=O)[C@H](CC(N)=O)NC(=O)[C@@H](NC(=O)[C@H](CCCCN)NC(=O)[C@H](CCCCN)NC(=O)[C@H](CC(=O)O)NC(=O)[C@H](Cc1ccccc1)NC(=O)[C@H](CCC(=O)O)NC(=O)[C@@H](NC(=O)[C@H](CCCCN)NC(=O)[C@H](CCCCN)NC(=O)[C@H](CC(N)=O)NC(=O)[C@@H](NC(=O)[C@H](CC(C)C)NC(=O)[C@H](CCC(=O)O)NC(=O)[C@H](CC(=O)O)NC(=O)[C@H](CO)NC(C)=O)C(C)C)[C@@H](C)CC)[C@@H](C)CC)C(=O)N[C@@H](CCC(=O)O)C(=O)N[C@@H](CCC(=O)O)C(=O)N[C@@H](CO)C(=O)N[C@@H](CC(=O)O)C(=O)N[C@@H](CCCCN)C(=O)N[C@@H](CCCCN)C(=O)N[C@@H](CCCCN)C(=O)N[C@@H](CC(C)C)C(=O)N[C@@H](CCC(=O)O)C(=O)N[C@@H](C)C(=O)N[C@@H](C)C(=O)N[C@@H](C)C(=O)N[C@@H](CCCCN)C(=O)N[C@@H](CCCCN)C(N)=O [Compound 51] (Ac-SDELVNKKIEFDKKINQSLKKIEESDKKKLEAAAKK-NH2),322
2,Ac-FDEEISQVNEKINQSLAFIRKSDELLHNVNAGKSTTEAAAKK(Succinyl(4-O-cholesteryl))-NH2 [Compound 26],7843
3,Ac-FDFDEFDASISQVNEKINESLAFIRLAFIRKSDELLEAAAKK-NH2 [Compound 24],>3.02
4,Ac-LVKKIDEFDASISQVNEKINQSLEEIRKSDELLHNVGSGSGK(Succinyl(4-O-cholesteryl))-NH2 [Compound 29],778
5,Ac-SLEQVNEKINQSLAFIRKSDEINQSDEEVNKSDELLEAAAKK-NH2 [Compound 50],2160
6,Ac-WDEFDASISQVNEKINQSLEEIRKSDELLHNVNAGLGSGSGK(Succinyl(4-O-cholesteryl))-NH2 [Compound 27],717
7,Ac-WDEFDASISQVNEKINQSLEEIRKSDELLHNVNALEAAAKK(Succinyl(4-O-cholesteryl))-NH2 [Compound 38],745.38

# Reference: patent US20260250325A1, “Antiviral Polypeptide Membrane Fusion Inhibitor, and Preparation Method and Application Thereof” (priority 2025, published 2026)
